Experimental data published in patent US20090299044A1.

Experiments:
[1] = biological target: human Kv1.1 channel (human) (UniProt Q09470); experiment: cell-based or functional assay
[2] = biological target: human Kv1.3 channel (human) (UniProt P22001); experiment: cell-based or functional assay

## Fc-L10-OSK1[K7S] (Fc fusion)
[1]
  hKv1.1: IC50 (whole cell patch clamp, block of K+ current): 100 nM
[2]
  fold change in potency (Kv1.3 current block) against Fc-L10-OSK1: 2 fold
  fold loss of potency (Kv1.3 current block) against synthetic OSK1 toxin peptide: 10 fold
